The text below walks through data of doi:10.1101/2024.06.06.597810.

For the experiment, the target named is Biotin-labeled BtRf-BetaCoV stem helix peptide (BtRf-BetaCoV). Put plainly: BLI.

For the substance S2P6 WT Fab, the Kd was 165 nM.
